Assay results from the supplement of paper PMC3578754.
Fold change is the IC50 on the isolate divided by the IC50 on a reference virus; 1 = unchanged, higher = more resistant. Changes are given against the subtype B consensus. No active / inactive call. The values were gathered from many studies (numbered anew) with different assays, which the source does not name. Most viruses are clinical isolates; some are laboratory strains or clones with known resistance changes. Isolates with mixed residues are left out; stretches that were not sequenced show no change. Round top values that many isolates share are read here as limits; other very high values and 0.1 may be limits too. The protease changes I3V and N37S, insertions and deletions cannot be read from the source.

How the values were obtained:
Test in all cases: fold change of IC50 against reference virus; higher = more resistant; Cell-culture drug susceptibility tests of virus bearing the protease of each isolate, gathered from many studies.
[1] = compound: Cc1c(O)cccc1C(=O)N[C@@H](CSc1ccccc1)[C@H](O)CN1C[C@H]2CCCC[C@H]2C[C@H]1C(=O)NC(C)(C)C [nelfinavir]
[2] = compound: CC(C)(C)NC(=O)[C@@H]1C[C@@H]2CCCC[C@@H]2CN1C[C@@H](O)[C@H](Cc1ccccc1)NC(=O)[C@H](CC(N)=O)NC(=O)c1ccc2ccccc2n1 [saquinavir]
[3] = compound: CC(C)(C)NC(=O)[C@@H]1CN(Cc2cccnc2)CCN1C[C@@H](O)C[C@@H](Cc1ccccc1)C(=O)N[C@H]1c2ccccc2C[C@H]1O [indinavir]

Test System | fold change of IC50 against reference virus [1] | fold change of IC50 against reference virus [2] | fold change of IC50 against reference virus [3]
HIV-1 isolate 3 (protease changes: V32I R57G, study 133) | 1 |  | 
HIV-1 isolate 26 (protease changes: M46I I50V, study 60) |  | 0.4 | 0.5
HIV-1 isolate 48 (protease changes: I15V R57K L63P, study 90) |  | 1 | 0.7
HIV-1 isolate 51 (protease changes: V32I R57G V82A, study 133) | 4 |  | 
HIV-1 isolate 53 (protease changes: L10F I84V, study 71) |  | 4 | 
HIV-1 isolate 85 (protease changes: G48V, study 73) |  | 7 | 
HIV-1 isolate 97 (protease changes: N37T L63P I64L V77I, study 90) |  | 1 | 1
HIV-1 isolate 104 (protease changes: R57G V82F, study 133) | 2 |  | 
HIV-1 isolate 116 (protease changes: T12S I15V R41K L63S I64V, study 68) | 1 |  | 
HIV-1 isolate 119 (protease changes: L10I L24I E35D M36I M46L I54V R57K I62V L63P A71V G73S V82A, study 32) |  |  | 59
HIV-1 isolate 129 (protease changes: R8G L10I R41K M46I L63P I72L G73T V77I L90M I93F, study 68) | 16 |  | 
HIV-1 isolate 139 (protease changes: L10R N37D M46I I62V L63P A71V G73S V77I V82T L90M I93L, study 32) |  |  | 59
HIV-1 isolate 183 (protease changes: R57G A71V, study 133) | 1 |  | 
HIV-1 isolate 200 (protease changes: L10F M46I I47V I50V D60V, study 37) |  | 1 | 4
HIV-1 isolate 219 (protease changes: I13V D60E I64V, study 90) |  | 1 | 1
HIV-1 isolate 241 (protease changes: V32I M46L A71V V82A, study 60) |  | 0.2 | 6
HIV-1 isolate 273 (protease changes: T12Q I15V L19I M36I D60E L63P L90M, study 90) |  | 1.7 | 1
HIV-1 isolate 326 (protease changes: L10I I13V R41K, study 19) |  | 1 | 
HIV-1 isolate 345 (protease changes: I84V, study 71) |  | 1 | 
HIV-1 isolate 349 (protease changes: I15V M36I R41K K45R I62V L63P A71T N88D L90M I93L, study 90) |  | 3.7 | 4.3

Test System | fold change of IC50 against reference virus [1] | fold change of IC50 against reference virus [2] | fold change of IC50 against reference virus [3]
HIV-1 isolate 365 (protease changes: R57G L63P, study 133) | 1 |  | 
HIV-1 isolate 415 (protease changes: G48V L90M, study 71) |  | 17 | 
HIV-1 isolate 464 (protease changes: V82A, study 71) |  | 1 | 
HIV-1 isolate 574 (protease changes: M46L V82A, study 60) |  | 0.2 | 2
HIV-1 isolate 587 (protease changes: L10I I15V E35D N37E K45R I54V L63P A71V V82T L90M I93L C95F, study 32) |  |  | 31
HIV-1 isolate 589 (protease changes: G48V L90M, study 60) |  | 36 | 2
HIV-1 isolate 610 (protease changes: L90M, study 71) |  | 3 | 
HIV-1 isolate 709 (protease changes: G48V R57G A71V I84V L90M, study 52) |  | 120 | 
HIV-1 isolate 712 (protease changes: L10I I13V R41K A71T V82A, study 19) |  | 2 | 
HIV-1 isolate 725 (protease changes: G48V R57G, study 52) |  | 10 | 
HIV-1 isolate 742 (protease changes: none, study 73) |  | 1 | 
HIV-1 isolate 801 (protease changes: M46L I50V, study 60) |  | 0.2 | 0.3
HIV-1 isolate 802 (protease changes: L63P L90M, study 90) |  | 1.5 | 1.5
HIV-1 isolate 827 (protease changes: I84V L90M, study 71) |  | 5 | 
HIV-1 isolate 879 (protease changes: M36I N37D L63P I93L, study 90) |  | 1.1 | 0.7
HIV-1 isolate 916 (protease changes: K14R N37E K43R L63T I64M A71V I72T I93L, study 90) |  | 1 | 0.4
HIV-1 isolate 923 (protease changes: N37D L63T A71T V77I L90M I93L, study 90) |  | 0.7 | 0.6
HIV-1 isolate 979 (protease changes: none, study 71) |  | 1 | 
HIV-1 isolate 998 (protease changes: T12S K14R I15V L19I N37A R41K, study 90) |  | 1 | 0.3
HIV-1 isolate 1046 (protease changes: K43R L63P A71V I93L, study 90) |  | 1 | 0.7

Test System | fold change of IC50 against reference virus [1] | fold change of IC50 against reference virus [2] | fold change of IC50 against reference virus [3]
HIV-1 isolate 1087 (protease changes: R57G, study 52) |  | 1 | 
HIV-1 isolate 1101 (protease changes: L90M, study 73) |  | 3 | 
HIV-1 isolate 1118 (protease changes: G48V R57G A71V I84V, study 52) |  | 100 | 
HIV-1 isolate 1125 (protease changes: L10F M46I I47V I50V, study 37) |  | 1 | 3
HIV-1 isolate 1203 (protease changes: L10F I84V, study 37) |  | 2 | 4
HIV-1 isolate 1227 (protease changes: none, study 60) |  | 1 | 1
HIV-1 isolate 1242 (protease changes: R41K Q58E L63P L90M, study 90) |  | 1.1 | 1
HIV-1 isolate 1279 (protease changes: L10F I84V, study 60) |  | 3 | 1
HIV-1 isolate 1319 (protease changes: L10I M46L I54V L63P A71V V82A L90M, study 32) |  |  | 59
HIV-1 isolate 1339 (protease changes: L10I K14R R41K M46L I54V L63P A71V V82A L90M I93L, study 32) |  |  | 14
HIV-1 isolate 1341 (protease changes: G48V A71V I84V L90M, study 60) |  | 40 | 4
HIV-1 isolate 1413 (protease changes: L10F K45I I84V, study 60) |  | 3 | 3
HIV-1 isolate 1484 (protease changes: R8K M46I G48V, study 60) |  | 1 | 1
HIV-1 isolate 1487 (protease changes: L10I L19I D60E L63P I64V A71V I72T P79D I84V L90M I93L, study 90) |  | 5.3 | 3.5
HIV-1 isolate 1494 (protease changes: T12S I13V K14R G16E E35D N37A L63Q I64V, study 90) |  | 0.9 | 0.5
HIV-1 isolate 1516 (protease changes: G48V L90M, study 73) |  | 20 | 
HIV-1 isolate 1552 (protease changes: none, study 37) |  | 1 | 1
HIV-1 isolate 1553 (protease changes: N37C I62V L63P V77I I93L, study 90) |  | 1 | 0.8
HIV-1 isolate 1559 (protease changes: I13V L63P, study 90) |  | 1 | 0.9
